Compound potency records, mixed from different reports. Data source: NIAID ChemDB in PubChem.

Common to all: cytotoxicity tests; cell line: HepG2.2.15; endpoint: CC50

An empty or dashed field is not shown.

{"structure": "O=Cc1cc(O)c(O)c(O)c1", "read by": "MTT", "result": "1390 µM"}
{"structure": "CO[C@@H]1[C@H](OP(O)(=S)OC[C@H]2O[C@@H](n3cnc4c(N)ncnc43)C[C@@H]2O)[C@@H](CO)O[C@H]1n1ccc(=O)[nH]c1=O", "result": ">1000 µM"}
{"structure": "O=c1[nH]cnc2c1ncn2[C@H]1CC[C@@H](CO)O1", "result": "233 µM"}
{"structure": "O=C(O)c1ccc(O)cc1", "read by": "MTT", "result": ">7000 µM"}
{"structure": "COc1ccc(-c2cc(=O)c3c(OC)cc(OC)c([C@H]4C(=O)c5c(OC)cc(OC)cc5O[C@@H]4c4ccc(OC)cc4)c3o2)cc1", "result": "14 µM"}
{"structure": "Nc1nc(=O)n([C@H]2CC[C@@H](CO)O2)cc1F", "result": "336 µM"}
{"structure": "Nc1ncnc2c1ncn2CCOCP(=O)(O)O", "result": "425 µM"}
{"structure": "CC(C)C1=C(O)C2=C(C(=O)C1=O)[C@@]1(C)CCCC(C)(C)C1C[C@H]2O", "read by": "sulforhodamine", "result": "30 µg/mL"}
{"structure": "COc1cc2ccc(=O)oc2cc1OC", "read by": "MTT", "result": "2890 µM"}
{"structure": "Nc1nc(=O)n([C@H]2CC[C@@H](CO)O2)cc1Cl", "result": "396 µM"}
{"structure": "COc1ccc([C@H]2OC[C@H]3[C@@H]2CO[C@@H]3c2ccc(OC)c(O)c2)cc1O", "read by": "MTT", "result": "1090 µM"}
{"structure": "Nc1nc(N)c2ncn([C@H]3CC[C@@H](CO)O3)c2n1", "result": "230 µM"}
{"structure": "CC(=O)Oc1ccc(-c2cc(=O)c3c(OC(C)=O)c(-c4cc(-c5cc(=O)c6c(OC(C)=O)cc(OC(C)=O)cc6o5)ccc4OC(C)=O)c(OC(C)=O)cc3o2)cc1", "result": "263 µM"}
{"structure": "O=c1[nH]c(=O)n([C@H]2C[C@H](F)[C@@H](CO)O2)cc1Cl", "result": "362 µM"}
{"structure": "O=c1cc(-c2ccc(O)c(-c3c(O)cc4oc(-c5ccc(O)cc5)cc(=O)c4c3O)c2)oc2cc(O)cc(O)c12", "result": ">36 µM"}
{"structure": "O=C1C[C@@H](c2ccc(O)cc2)Oc2cc(OC3O[C@H](CO)[C@@H](O)[C@H](O)[C@H]3O)cc(O)c21", "read by": "MTT", "result": ">2550 µM"}

Again, the opening 2 rows:

| structure | read by | result |
|---|---|---|
| O=Cc1cc(O)c(O)c(O)c1 | MTT | 1390 µM |
| CO[C@@H]1[C@H](OP(O)(=S)OC[C@H]2O[C@@H](n3cnc4c(N)ncnc43)C[C@@H]2O)[C@@H](CO)O[C@H]1n1ccc(=O)[nH]c1=O |  | >1000 µM |

CCn: concentration that lowers growth or viability of the cells by n%. Neighbouring rows are from separate reports.